The values that follow come from article PMC9598941.

For at least one entry, the source does not settle the construct or the ends of the probe. Tags and fusion partners may be left off the protein sequences shown.

Series [1] concerns the target T1, CcpA (catabolite control protein A) (UniProt P99175).
T1 sequence (looked up, limits assumed): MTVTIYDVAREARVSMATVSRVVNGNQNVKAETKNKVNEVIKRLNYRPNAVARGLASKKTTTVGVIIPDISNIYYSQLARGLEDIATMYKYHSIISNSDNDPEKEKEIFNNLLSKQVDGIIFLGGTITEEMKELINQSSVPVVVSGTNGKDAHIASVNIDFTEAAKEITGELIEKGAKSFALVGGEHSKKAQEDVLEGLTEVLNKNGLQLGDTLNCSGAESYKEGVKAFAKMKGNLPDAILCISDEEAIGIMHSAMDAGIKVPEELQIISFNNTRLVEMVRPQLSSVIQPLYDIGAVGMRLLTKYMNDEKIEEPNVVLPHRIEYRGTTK
Nature of the series: EMSA. The conditions noted are these: CcpA 0-600 pM, probe 20 fM (so in the source); recombinant protein; protein details: His-tag (pET28a, pETccpA); probe letters rebuilt from the primers and the genome.

Series [2] has as its target T1, CcpA (catabolite control protein A). Nature of the series: competition with a labelled probe. The conditions noted are these: unlabeled Psak1, 200-fold excess (4 pM), blocks complex with biotin-Psak1; recombinant protein; protein details: His-tag (pET28a, pETccpA); probe letters rebuilt from the primers and the genome.

For the sequence “GGCGCTTCCTCCAAATATAATATATTTGTTTTTATTTATCTCTTTTTATAGCTAACACCCTTATTTAAGATGATAAATATCAACAACTTCATTTTATATTGAGAAAATATTAAAAATCAATAAAATATTAAAAGAAACTAAACTTACATTAAAAAATAATTAACAAATATTTAACATTTTAACCTAAGAATTAAAACACTTCTTTCACAATCAATCTCTCATGCCATATCCACTCATTATGATTGTTCCAATAAATGCGACACCAACCATCTATAATTTCAAACACATATATTAATGTTCCAGGCGCGTATACAGCCTGTCCAACATCGAATCTATAGTTAGTACGATTATCACCGTATCTAGTGGCTGAAGTAGCACCTAAGCCGTCGATTTTCGCATTAAAATAAGCACCTTTTGACCATTTAAGGTTATAAGGCGCTTTACTTCCAACTGTTATTTTACTTGCA (double strand) [Psak1]”, the binding result in series [1] and in series [2] was “binds” each time.
